Percent effect of library compounds

Measurements from “University of Dundee, Small-Polar-MMV Screening Library” (2021), ChEMBL document CHEMBL3988442.

Mtb glucose medium: 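Growth of Mycobacterium tuberculosis over 3 days (7H9 medium with glucose and tyloxapol); the read-out is not stated. Tested at 500 µM. Direction is inferred from retests: higher values go with more growth inhibition. Size under these conditions: about 18,000 compounds, about 1,400 of them at 50% or above in at least one test.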
Mtb cholesterol medium: 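Whole-cell growth test on Mycobacterium tuberculosis, read after 4 days in a medium based on cholesterol and the lipid DPPC; the read-out is not stated. Tested at 500 µM. The record gives no direction; compounds that gave an IC50 in retests scored well above the rest, so higher reads as more growth inhibition. Of about 18,000 compounds tested this way, about 900 (5%) reached 50% or more in at least one test.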

Values are the deposited “Percent Effect”, in %. How 0% and 100% were set is not recorded. Most values in the screen are low, and negative values occur. The entries come from a sample that favours strong results. A dash means the value is not listed here; it may have been measured.

Compound: CCCc1cc(-c2nc3c([nH]2)CCCNC3=O)on1
Mtb glucose medium: 8.368

Compound: CCNC(=O)C(C)OC(=O)c1[nH]c(C)c(C(C)=O)c1C (configuration not stated)
Mtb glucose medium: -0.6634
Mtb cholesterol medium: -11.67

Compound: OCCC1CNCCN1CCCc1ccccc1 (configuration not stated)
Mtb glucose medium: 33.06

Compound: O=C1N(CC2CCC2)CCCC1(O)CN1CCOCC1 (configuration not stated)
Mtb cholesterol medium: -10.16

Compound: CN(C)C(=O)c1cccc(CC#N)c1
Mtb glucose medium: -11.31

Compound: CNC(CO)c1ccc(Cl)cc1 (configuration not stated)
Mtb glucose medium: 8.597

Compound: OCC(O)CNc1ccnc2ccc(Cl)cc12 (configuration not stated)
Mtb glucose medium: -29.82

Compound: O=C(Nc1cn[nH]c1)Nc1cccc(OCC(F)F)n1
Mtb glucose medium: 10.9

Compound: NS(=O)(=O)N1CCC(NC(=O)CC2CCCCC2)CC1
Mtb cholesterol medium: 1.625

Compound: CNC(=O)CCCNCc1c(C)nn(C)c1OC
Mtb glucose medium: 4.769

Compound: CCc1nnc(CNC(=O)c2cnn(CC)c2C)s1
Mtb glucose medium: 24.5

Compound: NCC1CCCN(c2ncccn2)C1 (configuration not stated)
Mtb glucose medium: 62.91

Compound: Cc1ccc(-c2nnc(SCCC(N)=O)n2C)cc1
Mtb cholesterol medium: -10.59

Compound: NCC1CCN(Cc2ccsc2)CC1
Mtb glucose medium: 1.746

Compound: NCC(O)c1ccc(-c2ccccc2)cc1 (configuration not stated)
Mtb glucose medium: 75.26
Mtb cholesterol medium: 71.37

Compound: Cc1nnc(N2CCC(=O)CC2)s1
Mtb cholesterol medium: 1.771

Compound: C[n+]1ccn(C(=O)N2CCCCC2)c1.[I-]
Mtb glucose medium: 10.87

Compound: CC(O)CNC(=O)NCc1ccc2c(c1)OCCO2 (configuration not stated)
Mtb glucose medium: 6.756
Mtb cholesterol medium: -8.564

Compound: CC(CN[C@@H](C)CO)c1ccccc1 (some centres not stated)
Mtb cholesterol medium: 4.932

Compound: CC(C)NC(=O)CNC(=O)CSc1cccs1
Mtb glucose medium: -11.27
Mtb cholesterol medium: -34.57

Compound: NCc1cn2cc(Br)ccc2n1
Mtb cholesterol medium: 26.55

Compound: CC(C)(C)C(=O)NCCC(=O)NC1CCS(=O)(=O)C1 (configuration not stated)
Mtb glucose medium: 1.36

Compound: CCC(C(=O)Nc1ncccc1O)N(C)C (configuration not stated)
Mtb glucose medium: -5.734
Mtb cholesterol medium: -21.24

Compound: O=C(NCC1CCCOC1)c1ccnc2ccccc12 (configuration not stated)
Mtb cholesterol medium: 3.001

Compound: COC(=O)c1cccc(S(=O)(=O)NC(C)C(N)=O)c1 (configuration not stated)
Mtb glucose medium: 7.746

Compound: CC1CCN(C(CN)c2cccs2)CC1 (configuration not stated)
Mtb glucose medium: 45.09
Mtb cholesterol medium: 71.01

Compound: CC(C)N1CCC(C(=O)N(C)Cc2nccn2C)CC1
Mtb glucose medium: 8.743

Compound: CCc1cc(N2CCN(Cc3ncc[nH]3)CC2)ncn1
Mtb glucose medium: 21.46

Compound: CS(=O)(=O)NCCC1CCCCN1CC1CCNCC1 (configuration not stated)
Mtb glucose medium: 1.652

Compound: CC(=O)N1Cc2ccccc2C[C@H]1C(=O)N1CCCC1
Mtb cholesterol medium: 8.663

Compound: Nc1ncc(C(F)F)cc1Br
Mtb glucose medium: 1.528

Compound: CC1(C)CCCN1C(=O)NCCCF
Mtb glucose medium: 4.603

Compound: CC(C)c1cccc(Cn2cc(F)ccc2=O)n1
Mtb glucose medium: 4.435
Mtb cholesterol medium: -9.556

Compound: CN(C)CC1CCCN1C(=O)NC1CC1 (configuration not stated)
Mtb glucose medium: 21.45

Compound: Cc1cnccc1CN(C)C(=O)c1ccc(F)cc1O
Mtb cholesterol medium: 4.775

Compound: COc1ccc(C2CCCN2C(C)=O)cc1OC (configuration not stated)
Mtb glucose medium: 8.376

Compound: OC(CN1CCOC2(CCCC2)C1)c1ccccc1 (configuration not stated)
Mtb glucose medium: 62.46
Mtb cholesterol medium: 52.75

Compound: CC[C@@H](CO)NC(=O)NCC(C)c1ccsc1 (some centres not stated)
Mtb glucose medium: 74.29
Mtb cholesterol medium: 62.32

Compound: CCC(C)(C)NCC(=O)Nc1cccc(C(=O)NC)c1
Mtb glucose medium: 5.544

Compound: CC(=O)NCC1CCN(Cc2cc(C(C)C)no2)C1 (configuration not stated)
Mtb glucose medium: 1.698

Some entries from above, unchanged:

Compound,Mtb glucose medium,Mtb cholesterol medium
CCc1nnc(CNC(=O)c2cnn(CC)c2C)s1,24.5,-
CCC(C)(C)NCC(=O)Nc1cccc(C(=O)NC)c1,5.544,-
CS(=O)(=O)NCCC1CCCCN1CC1CCNCC1 (configuration not stated),1.652,-
CNC(=O)CCCNCc1c(C)nn(C)c1OC,4.769,-